Reference: article PMC9312377
Where “and” joins values, the source holds several entries; their conditions need not be identical. Equal values may be shown once.

Columns and labels:
[1] = system: rg-A/California/04/2009 (H1N1)pdm09 PA E23K; test: Plaque reduction assay, BXA susceptibility; conditions: read-out: BXA susceptibility in the plaque reduction assay (EC50 ± SEM), MDCK cells, 72 or 96 hpi
[2] = system: rg-A/Texas/71/2017 (H3N2) PA E23G; test: Plaque reduction assay, BXA susceptibility; conditions: read-out: BXA susceptibility in the plaque reduction assay (EC50 ± SEM), MDCK cells, 72 or 96 hpi
[3] = system: rg-A/Texas/71/2017 (H3N2) PA E23K+I38T; test: Plaque reduction assay, BXA susceptibility; conditions: read-out: BXA susceptibility in the plaque reduction assay (EC50 ± SEM), MDCK cells, 72 or 96 hpi
[4] = system: rg-A/Texas/71/2017 (H3N2) PA E23K; test: Plaque reduction assay, BXA susceptibility; conditions: read-out: BXA susceptibility in the plaque reduction assay (EC50 ± SEM), MDCK cells, 72 or 96 hpi
[5] = system: rg-A/Texas/71/2017 (H3N2) PA E23G+I38T; test: Plaque reduction assay, BXA susceptibility; conditions: read-out: BXA susceptibility in the plaque reduction assay (EC50 ± SEM), MDCK cells, 72 or 96 hpi
[6] = system: rg-A/California/04/2009 (H1N1)pdm09 PA E23K+I38T; test: Plaque reduction assay, BXA susceptibility; conditions: read-out: BXA susceptibility in the plaque reduction assay (EC50 ± SEM), MDCK cells, 72 or 96 hpi
[7] = system: rg-A/California/04/2009 (H1N1)pdm09 PA I38T; test: Plaque reduction assay, BXA susceptibility; conditions: read-out: BXA susceptibility in the plaque reduction assay (EC50 ± SEM), MDCK cells, 72 or 96 hpi
[8] = system: rg-A/California/04/2009 (H1N1)pdm09 PA E23G+I38T; test: Plaque reduction assay, BXA susceptibility; conditions: read-out: BXA susceptibility in the plaque reduction assay (EC50 ± SEM), MDCK cells, 72 or 96 hpi
[9] = system: rg-A/Texas/71/2017 (H3N2) PA I38T; test: Plaque reduction assay, BXA susceptibility; conditions: read-out: BXA susceptibility in the plaque reduction assay (EC50 ± SEM), MDCK cells, 72 or 96 hpi
[10] = system: recombinant A(H3N2) PAN E23K; test: Modified thermofluor assay, BXA-rPAN thermal stabilization
[11] = molecular target: recombinant A(H1N1)pdm09 PAN E23K (Influenza A virus, UniProt C3W5S0, DEL51-57/DEL61-72/E23K/E59G); test: as above; conditions: for SYPRO Orange signal: 37uM BXA

O=C1c2c(O)c(=O)ccn2N([C@@H]2c3ccccc3SCc3c2ccc(F)c3F)[C@@H]2COCCN12
EC50 [1]: 2.8 nM and 2.78 nM
EC50 [2]: 2.12 nM
EC50 [3]: 402 nM
EC50 [4]: 5.04 nM and 5 nM
EC50 [5]: 131 nM
EC50 [6]: 48.3 nM
EC50 [7]: 18.3 nM and 18.2 nM
EC50 [8]: 30.4 nM
EC50 [9]: 69.8 nM
Tm (°C) with BXA ([10]; A(H3N2) PAN E23K 2 μM, BXA 37 μM): 73 °C and 73.0 ± 0.1 °C
ΔTm (°C) ([10]; A(H3N2) PAN E23K, DMSO vs BXA 37 μM): 24.0 ± 0.4 °C
SYPRO Orange signal ([11]; 31 °C): 4802.38 RFU and 4597.62 RFU and 3153.29 RFU
SYPRO Orange signal ([11]; 32 °C): 5108.32 RFU and 4714.24 RFU and 3229.87 RFU
SYPRO Orange signal ([11]; 33 °C): 5252.5 RFU and 4880.88 RFU and 3144.43 RFU
SYPRO Orange signal ([11]; 34 °C): 5404.43 RFU and 5368.69 RFU and 3433.06 RFU
SYPRO Orange signal ([11]; 35 °C): 5189.53 RFU and 5447.54 RFU and 3347.38 RFU
SYPRO Orange signal ([11]; 36 °C): 5586.58 RFU and 5876.74 RFU and 3882.72 RFU
SYPRO Orange signal ([11]; 37 °C): 5229.86 RFU and 5469.68 RFU and 4034.94 RFU
SYPRO Orange signal ([11]; 38 °C): 5600.84 RFU and 5511.01 RFU and 4112.51 RFU
SYPRO Orange signal ([11]; 39 °C): 5422.3 RFU and 5457.99 RFU and 4113.91 RFU
SYPRO Orange signal ([11]; 40 °C): 4839.35 RFU and 5542.91 RFU and 4371.9 RFU
SYPRO Orange signal ([11]; 41 °C): 5295.9 RFU and 6076.9 RFU and 4372.86 RFU
SYPRO Orange signal ([11]; 42 °C): 4813.77 RFU and 5873.16 RFU and 4443.73 RFU
SYPRO Orange signal ([11]; 43 °C): 4871.92 RFU and 5890.36 RFU and 4495.08 RFU
SYPRO Orange signal ([11]; 44 °C): 4883.76 RFU and 6033.89 RFU and 4425.93 RFU
SYPRO Orange signal ([11]; 45 °C): 5567.31 RFU and 6682.12 RFU and 4694.6 RFU
SYPRO Orange signal ([11]; 46 °C): 5112.28 RFU and 6428.95 RFU and 4686.32 RFU
SYPRO Orange signal ([11]; 47 °C): 5288.66 RFU and 6663.52 RFU and 4409.52 RFU
SYPRO Orange signal ([11]; 48 °C): 5694.89 RFU and 7189.27 RFU and 4828.11 RFU
SYPRO Orange signal ([11]; 49 °C): 5732.35 RFU and 7406.94 RFU and 4397.76 RFU
SYPRO Orange signal ([11]; 50 °C): 5882.68 RFU and 7861.75 RFU and 4750.06 RFU
SYPRO Orange signal ([11]; 51 °C): 5998.24 RFU and 7853.98 RFU and 4338.35 RFU
SYPRO Orange signal ([11]; 52 °C): 6715.91 RFU and 8681.37 RFU and 4399.8 RFU
SYPRO Orange signal ([11]; 65 °C): 9108.07 RFU and 13632.9 RFU and 7221.77 RFU
SYPRO Orange signal ([11]; 66 °C): 9658.71 RFU and 13966.8 RFU and 7652.35 RFU
Tm (°C) with BXA ([11]; A(H1N1)pdm09 PAN E23K 2 μM, BXA 37 μM): 74.0 ± 0.1 °C and 74 °C
ΔTm (°C) ([11]; A(H1N1)pdm09 PAN E23K, DMSO vs BXA 37 μM): 23.0 ± 0.3 °C
SYPRO Orange signal ([11]; Panel A, E23K, 67 °C): 10088.8 RFU and 14784 RFU and 8455.19 RFU
SYPRO Orange signal ([11]; Panel A, E23K, 68 °C): 10830.8 RFU and 15248.5 RFU and 9746.09 RFU
SYPRO Orange signal ([11]; Panel A, E23K, 69 °C): 12592.3 RFU and 16776.5 RFU and 11210 RFU
SYPRO Orange signal ([11]; Panel A, E23K, 70 °C): 15410.9 RFU and 19342 RFU and 13502.7 RFU
SYPRO Orange signal ([11]; Panel A, E23K, 71 °C): 20281.6 RFU and 23593.1 RFU and 18288.3 RFU
SYPRO Orange signal ([11]; Panel A, E23K, 72 °C): 30042.8 RFU and 31928.9 RFU and 27392.5 RFU
SYPRO Orange signal ([11]; Panel A, E23K, 73 °C): 47206 RFU and 47559.1 RFU and 43327.3 RFU
SYPRO Orange signal ([11]; Panel A, E23K, 74 °C): 74720.4 RFU and 71161.1 RFU and 68706.6 RFU
SYPRO Orange signal ([11]; Panel A, E23K, 75 °C): 110514 RFU and 102604 RFU and 102006 RFU
SYPRO Orange signal ([11]; Panel A, E23K, 76 °C): 147350 RFU and 134812 RFU and 136774 RFU
SYPRO Orange signal ([11]; Panel A, E23K, 77 °C): 174563 RFU and 158368 RFU and 162376 RFU
SYPRO Orange signal ([11]; Panel A, E23K, 78 °C): 187002 RFU and 170633 RFU and 175725 RFU
SYPRO Orange signal ([11]; Panel A, E23K, 79 °C): 189866 RFU and 173453 RFU and 178292 RFU
SYPRO Orange signal ([11]; Panel A, E23K, 80 °C): 189065 RFU and 172956 RFU and 176966 RFU
SYPRO Orange signal ([11]; Panel A, E23K, 81 °C): 187142 RFU and 171063 RFU and 174216 RFU
SYPRO Orange signal ([11]; Panel A, E23K, 82 °C): 185522 RFU and 169458 RFU and 170822 RFU
SYPRO Orange signal ([11]; Panel A, E23K, 83 °C): 183160 RFU and 166954 RFU and 167616 RFU
SYPRO Orange signal ([11]; Panel A, E23K, 84 °C): 179838 RFU and 163102 RFU and 163949 RFU
SYPRO Orange signal ([11]; Panel A, E23K, 85 °C): 174772 RFU and 157530 RFU and 159945 RFU
SYPRO Orange signal ([11]; Panel A, E23K, 86 °C): 172451 RFU and 152920 RFU and 156234 RFU
SYPRO Orange signal ([11]; Panel A, E23K, 87 °C): 169203 RFU and 149203 RFU and 151924 RFU
SYPRO Orange signal ([11]; Panel A, E23K, 88 °C): 164340 RFU and 144984 RFU and 148070 RFU
SYPRO Orange signal ([11]; Panel A, E23K, 89 °C): 158675 RFU and 141028 RFU and 143669 RFU
SYPRO Orange signal ([11]; Panel A, E23K, 90 °C): 154483 RFU and 136330 RFU and 139550 RFU
SYPRO Orange signal ([11]; Panel A, E23K, 91 °C): 148403 RFU and 130854 RFU and 135324 RFU
SYPRO Orange signal ([11]; Panel A, E23K, 92 °C): 144125 RFU and 126719 RFU and 131240 RFU
SYPRO Orange signal ([11]; Panel A, E23K, 93 °C): 139362 RFU and 121781 RFU and 127357 RFU
SYPRO Orange signal ([11]; Panel A, E23K, 94 °C): 135546 RFU and 119063 RFU and 123079 RFU
SYPRO Orange signal ([11]; Panel A, E23K, 95 °C): 131231 RFU and 114217 RFU and 119408 RFU
SYPRO Orange signal ([11]; Panel A, E23K, 96 °C): 126749 RFU and 107435 RFU and 115890 RFU
SYPRO Orange signal ([11]; Panel A, E23K, 97 °C): 122606 RFU and 103438 RFU and 110833 RFU
SYPRO Orange signal ([11]; Panel A, E23K, 98 °C): 118644 RFU and 99944.6 RFU and 106727 RFU
SYPRO Orange signal ([11]; Panel A, E23K, 99 °C): 114330 RFU and 95776.5 RFU and 100709 RFU
